Experimental data: PubChem BioAssay AID1259414 (Drosophila RNAi Screening Center, 2018)
The deposit covers about 24,000 reagents; shown is an unselected part of those that have a named target and a result. In the full data, about 1,210 (5%) are marked active. 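Inactive calls also include excluded dsRNAs with several or no targets, genes unexpressed in JW18, and well A1, regardless of score.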 The numbers tell different reagents against one gene apart. A plus sign joins genes that one reagent is predicted to hit. No sequences are given here.

Assay: 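Host factors increasing or decreasing Wolbachia levels in cultured fly cells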 (primary screen)
Cells: Drosophila JW18 cells infected with Wolbachia
Knock-down reagent: long dsRNA against Drosophila genes, 0.25 µg dsRNA per well of a 384-well plate
Duration: 5 days
Conditions: cells persistently infected with Wolbachia before knock-down; no added drug
Read-out: 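Imaged fluorescence in situ signal for Wolbachia 23S rRNA per DAPI-counted host cell, given as a robust z-score within each plate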
Scale: Wolbachia per cell robust z: higher = more Wolbachia per host cell than the plate typical
Hit rule: 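Active if absolute robust z reaches 1.5 in two or more of three replicates, leaving out multi- or no-target dsRNAs, genes unexpressed in JW18 and A1 wells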

The first 2 records, ahead of the listing:
Gene | reagent | Wolbachia per cell robust z, rep 1 | Wolbachia per cell robust z, rep 2 | Wolbachia per cell robust z, rep 3 | Call
CapaR (GeneID 40393) | 1 | 0.0523 | 0.771 | 1.73 | inactive
l(2)34Fd (GeneID 34839) | 1 | 1.39 | 0.058 | -6.35 | inactive

The list itself, repeating the preview:
Gene | reagent | Wolbachia per cell robust z, rep 1 | Wolbachia per cell robust z, rep 2 | Wolbachia per cell robust z, rep 3 | Call
CapaR (GeneID 40393) | 1 | 0.0523 | 0.771 | 1.73 | inactive
l(2)34Fd (GeneID 34839) | 1 | 1.39 | 0.058 | -6.35 | inactive
Grip84 (GeneID 32946) | 1 | 1.11 | 0.687 | -1.4 | inactive
Grip84 (GeneID 32946) | 2 | -0.343 | 0.237 | -0.675 | inactive
SdhBL (GeneID 32887) | 1 | 1.03 | 0.698 | 0.837 | inactive
CG13917 (GeneID 38186) | 1 | -1.12 | 0.834 | 0.0399 | inactive
CG13917 (GeneID 38186) | 2 | 0.974 | 0.966 | 1.57 | inactive
CG31445 (GeneID 326140) | 1 | 0.482 | -0.273 | 0.639 | inactive
CG31445 (GeneID 326140) | 2 | 0.912 | 0.282 | 0.674 | inactive
Snx16 (GeneID 37015) | 1 | -2.21 | -0.294 | 0.00145 | inactive
CG17321 (GeneID 35144) | 1 | -0.028 | 0.312 | -1.59 | inactive
CG17321 (GeneID 35144) | 2 | -0.0931 | -0.216 | 0.72 | inactive
CG42740 + CG2217 | 1 | -1.71 | -0.725 | -0.212 | inactive
MCPH1 (GeneID 36272) | 1 | -0.869 | -0.954 | 0.732 | inactive
MCPH1 (GeneID 36272) | 2 | -0.521 | 0.105 | -0.28 | inactive
MCPH1 (GeneID 36272) | 3 | -0.234 | 0.165 | -1.24 | inactive
MCPH1 (GeneID 36272) | 4 | 0.283 | -0.00858 | 0.173 | inactive
Ir60c (GeneID 10178791) | 1 | -1.75 | -0.798 | -0.859 | inactive
ix (GeneID 45881) | 1 | 0.58 | 0.871 | 0.762 | inactive
ix (GeneID 45881) | 2 | -1.24 | -0.208 | 0.987 | inactive
CG5516 (GeneID 41940) | 1 | -0.225 | -2.07 | -1.45 | inactive
CG5516 (GeneID 41940) | 2 | 0.844 | -1.6 | 0.643 | inactive
CG5516 (GeneID 41940) | 3 | -8.34 | -0.501 | 0.314 | inactive
slp2 (GeneID 33608) | 1 | -4.3 | -4.95 | 0.758 | inactive
slp2 (GeneID 33608) | 2 | -1.09 | -0.0333 | -0.976 | inactive
slp2 (GeneID 33608) | 3 | -0.397 | -2.62 | 0.0441 | inactive
Ubr1 (GeneID 32687) | 1 | -2.85 | -6.24 | -1.69 | active
CG34206 (GeneID 5740129) | 1 | -1.1 | 0.0153 | -6.06 | inactive
